According to patent US9314479B2, “Methods and compositions for the disruption of biofilms” (National Jewish Health, priority 2007, dated 2016):

Test system: PA01 biofilms formed in the presence of neutrophils
Test: Crystal violet assay: 10 minute exposure of 24 or 48 hour neutrophil-induced PA01 biofilms to poly(amino acid) and/or DNase
Conditions: 10 minutes; DNase 8.25 ug/ml, (Asp)260 5 μM

B1: DNase: Pulmozyme (DNase) (Genentech) at 1 mg/mL in saline (protein, UniProt P24855 23-282, looked up)
Deoxyribonuclease-1: LKIAAFNIQTFGETKMSNATLVSYIVQILSRYDIALVQEVRDSHLTAVGKLLDNLNQDAPDTYHYVVSEPLGRNSYKERYLFVYRPDQVSAVDSYYYDDGCEPCGNDTFNREPAIVRFFSRFTEVREFAIVPLHAAPGDAVAEIDALYDVYLDVQEKWGLEDVMLMGDFNAGCSYVRPSQWSSIRLWTSPTFQWLIPDSADTTATPTHCAYDRIVVAGMLLRGAVVPDSALPFNFQAAYGLSDQLAQAISDHYPVEVMLK
  decrease in biofilm density, 48 hour biofilm, lower DNase: 16%
